Anti-infective test results gathered from many reports (values: NIAID ChemDB through PubChem).

Shared fields: tests in culture; agent: HIV-1; read-out: fold resistance

Blank or dashed fields: not listed here. Lines come from different laboratories, so protocols vary. Fold resistance has wild type as its base.

structure	strain or isolate	cells	mutations	read by	result
Cc1cn([C@@H]2O[C@H](CO[Si](C)(C)C(C)(C)C)[C@@]3(OS(=O)(=O)C=C3N)[C@H]2O[Si](C)(C)C(C)(C)C)c(=O)[nH]c1=O	IIIB	CEM	RT-E138K	syncytia	62
Cc1ccnc(N2C(=O)CSC2c2c(Cl)cccc2Cl)n1	-	CEM	RT-Y188H	cytopathic effect	229.7
Cc1ccnc2c1NC(=O)c1cccnc1N2C1CC1	Oxathiin carboxanilide-resistant RT L100I	CEM + CEM-SS	RT-L100I	cytopathic effect / XTT	10
Fc1cccc(F)c1Cn1c(-c2c(F)cccc2F)nc2c(Br)cccc21	-	MT-4	RT-L100I	cytopathic effect / MTT	0.6
O=c1[nH]cnc2c1ncn2[C@H]1CC[C@@H](CO)O1	IIIB BCH-189-resistant (RT M184V)	MT-4	RT-M184V	p24	3.68
CC(C)c1nc(CN(C)C(=O)N[C@H](C(=O)N[C@@H](Cc2ccccc2)C[C@H](O)[C@H](Cc2ccccc2)NC(=O)OCc2cncs2)C(C)C)cs1	NRTI resistant	MT-4	RT K70R T215Y 69SS A62V E79K V118I M184V E203K L210W	cytopathic effect / MTT	1.3
Nc1ncnc2c1ncn2CCOCP(=O)(O)O	IIIB	CEM	RT-E138K	syncytia	0.882
COc1ccc2c(c1)N(C(=O)OC(C)C)[C@@H](CSC)C(=S)N2	Recombinant	MT-4	RT-V106A P225H	cytopathic effect	140
Nc1cccc2c1nc(-c1c(F)cccc1F)n2Cc1c(F)cccc1F	4XAZT/L100I (RT D67N K70R L100I T215Y K219Q)	MT-4	RT-D67N K70R L100I T215Y K219Q	cytopathic effect / MTT	0.75
Cc1cn([C@H]2C[C@H](N=[N+]=[N-])[C@@H](CO)O2)c(=O)[nH]c1=O	IIIB(CALO-R(II))	CEM + CEM-SS	RT-V90I T139I P225S	cytopathic effect / XTT	1
Fc1cccc(F)c1C1SCc2nc3ccccc3n21	-	CEM	RT-L100I	cytopathic effect	2.24
Cc1c(N)nc([C@H](CC(N)=O)NC[C@H](N)C(N)=O)nc1C(=O)N[C@H](C(=O)N[C@H](C)[C@@H](O)[C@H](C)C(=O)N[C@H](C(=O)NCCc1nc(-c2nc(C(=O)NCCC[S+](C)C)cs2)cs1)[C@@H](C)O)C(O[C@@H]1O[C@@H](CO)[C@@H](O)[C@H](O)[C@@H]1O[C@H]1O[C@H](CO)[C@@H](O)[C@H](OC(N)=O)[C@@H]1O)c1cnc[nH]1	Recombinant 3TC/AZT-resistant	PBMC	RT-M41L M184V T215Y	p24	0.57
Nc1ccn([C@H]2CC[C@@H](CO)O2)c(=O)n1	IIIB	CEM	RT-E138K	syncytia	0.8
Cc1cn([C@H]2C[C@H](N=[N+]=[N-])[C@@H](CO)O2)c(=O)[nH]c1=O	-	CEM	RT-Y181C	cytopathic effect	2.7
CC(C)(C)[Si](C)(C)OC[C@H]1O[C@@H](n2ccc(=O)[nH]c2=O)[C@H](O[Si](C)(C)C(C)(C)C)C12OS(=O)(=O)C=C2N	IIIB	CEM	RT-E138K	syncytia	>61.5
COc1cc(C)nc(N2C(=O)CSC2c2c(Cl)cccc2Cl)n1	-	CEM	RT-K103N	cytopathic effect	526.8
C[C@H](Cn1cnc2c(N)ncnc21)OCP(=O)(O)O	NL4-3	MT-4	K65R	cytopathic effect / XTT / absorbance	2.3
Cc1ccnc2c1NC(=O)c1cccnc1N2C1CC1	BCF03	PBMC	RT-A98G Y181C	-	410
Nc1nc(=O)n([C@@H]2CO[C@H](CO)S2)cc1F	HXB2D (RT-M184V)	MT-2	RT-M184V	RT activity	>15.15
CCc1c(C)[nH]c(=O)c(N(C)C)c1C(=O)c1cccc(/C(C)=C/C#N)c1	-	MT-4	RT-E138K	cytopathic effect / MTT	4
CC(C)=CCOc1cc(NC(=S)c2ccoc2C)ccc1Cl	Recombinant	MT-4	RT-P225H	cytopathic effect	3.7
CCCCCCCSc1nsc(NC(=O)Nc2ccccc2)n1	NL4-3	MT-4	RT-K103N Y181C	cytopathic effect	2.28
O=c1[nH]cnc2c1ncn2[C@H]1CC[C@@H](CO)O1	HXB2D (RT-M184V)	CBMC	RT-M184V	p24	2.42
CCc1c(C)[nH]c(=O)c(N(C)C)c1Cc1cccc(F)c1	-	MT-4	RT-K103N	cytopathic effect / MTT	31.5
Nc1nc2c(ncn2[C@H]2CO[C@@H](CO)O2)c(=O)[nH]1	-	-	RT-V106A G190A	-	~0.25
Nc1cccc(CN2C(=O)N(Cc3cccc(N)c3)[C@H](Cc3ccccc3)[C@H](O)[C@@H](O)[C@H]2Cc2ccccc2)c1	THAI (PR-D60E I84V)	MT-2	PR-D60E I84V	virus yield	10
Nc1nc(=O)n([C@H]2CO[C@@H](CO)S2)cc1F	HXB2D (RT-M184V)	MT-4	RT-M184V	RT activity	13.5
COC(=O)c1cccc2c1nc(-c1c(F)cccc1F)n2Cc1c(F)cccc1F	-	MT-4	RT-Y188H	cytopathic effect / MTT	1.58
Cc1cn([C@H]2C[C@H](N=[N+]=[N-])[C@@H](CO)O2)c(=O)[nH]c1=O	G910-11-(RT-T215Y/F) NRTI resistant	PBMC	RT-T215Y/F	p24	50
CC(C)(C)NC(=O)[C@@H]1CN(C(C)(C)c2cc3cnccc3o2)CCN1C[C@@H](O)C[C@@H](Cc1ccccc1)C(=O)N[C@H]1c2ccccc2C[C@H]1O	V-18C(PR-L10I M36I S37D M46I R57K LK63P A71V G73S I84V L90M I93L)	-	PR-L10I M36I S37D M46I R57K LK63P A71V G73S I84V L90M I93L	-	>66.7
CCc1c(Sc2ccccn2)n(COCc2ccccc2)c(=O)[nH]c1=O	IIIB(CALO-R(II))	CEM + CEM-SS	RT-V90I T139I P225S	cytopathic effect / XTT	1
Cc1cc(C)nc(N2C(=O)CSC2c2c(Cl)cccc2Cl)n1	-	CEM	RT-Y188H	cytopathic effect	316
CC(=O)Nc1cccc2c1nc(-c1c(F)cccc1F)n2Cc1c(F)cccc1F	-	MT-4	RT-K101E	cytopathic effect / MTT	>40
CCc1c(C)[nH]c(=O)c(N(C)C)c1C(=O)c1cccc(/C=C/c2cccnc2)c1	-	MT-4	RT-Y188L	cytopathic effect / MTT	52.6
C=C(C)OC(=O)N1c2cc(Cl)ccc2NC(=S)C1(C)C	Recombinant	MT-4	RT-P225H	cytopathic effect	4
O=c1[nH]cnc2c1ncn2[C@H]1CC[C@@H](CO)O1	HxB2D(RT-D67G)	MT-4	RT-D67G	RT activity	2.83
S=C(NCCc1cccs1)Nc1ccc(Br)cn1	NRTI resistant (RT L74V M41L V106A T215Y) MDR	PBMC	RT-L74V M41L V106A T215Y	p24	0.13
Cc1cn([C@H]2C[C@H](N=[N+]=[N-])[C@@H](CO)O2)c(=O)[nH]c1=O	BCF06	PBMC	RT-A98G K103R	-	>3
Cc1occc1C(=S)Nc1ccc(Cl)c(/C=N/OC(C)(C)C)c1	Costatolide-resistant (RT Y188H)	CEM + CEM-SS	RT-Y188H	cytopathic effect / XTT	8
O=c1[nH]cnc2c1ncn2[C@H]1CC[C@@H](CO)O1	IIIB	CEM	RT-E138K	syncytia	3.26
O=S1(c2ccccc2)=NC(=S)Nc2ccccc21	IIIB(OC-R(I))	CEM + CEM-SS	RT-L100I	cytopathic effect / XTT	11
C/C=C/CSc1cc(NC(=S)c2ccsc2C)ccc1Cl	NL4-3 (RT L100I)	CEM + CEM-SS	RT-L100I	cytopathic effect / XTT	>40
CCc1c(C)[nH]c(=O)c(N(C)C)c1C(=O)c1cccc(C=O)c1	-	MT-4	RT-K103N	cytopathic effect / MTT	15.7
Nc1nc(=O)n([C@@H]2CC[C@H](CO)O2)cc1F	74V (RT-L74V)	HT4 + HT4 LacZ-1	RT-L74V	-	2
Cc1ccnc2c1NC(=O)c1cccnc1N2C1CC1	-	CEM	RT-Y181C	cytopathic effect	69
Nc1nc(=O)n([C@@H]2CO[C@H](CO)S2)cc1F	HXB2D(RT-M184I)	MT-4	RT-M184I	RT activity	4.09
CCc1c(C)[nH]c(=O)c(N(C)C)c1C(=O)c1cc(Cl)cc(Cl)c1	-	MT-4	RT-V179E	cytopathic effect / MTT	7
CC(C)Nc1cccnc1N1CCN(C(=O)c2cc3cc(NS(C)(=O)=O)ccc3[nH]2)CC1	NRTI resistant (RT L74V M41L V106A T215Y) MDR	PBMC	RT-L74V M41L V106A T215Y	p24	44.4
CCc1c(C)[nH]c(=O)c(N(C)C)c1C(=O)c1cccc(/C=C/C#N)c1	-	MT-4	RT-E138K	cytopathic effect / MTT	5
Nc1nc(NC2CC2)c2ncn([C@H]3C=C[C@@H](CO)O3)c2n1	BRU PITT.(RT-M184V)	PBMC	RT-M184V	cytopathic effect / MTT	0.5
CCc1cc(NCc2nc3c(Cl)ccc(Cl)c3o2)c(=O)[nH]c1C	DLV-resistant IIIB (RT-L100I)	MT-4	RT-L100I	p24	36.4
Nc1ccn([C@H]2CC[C@@H](CO)O2)c(=O)n1	-	MT-2	RT-T69G	p24	7.4
Cc1cn([C@H]2C[C@H](N=[N+]=[N-])[C@@H](CO)O2)c(=O)[nH]c1=O	NL4-3	MT-4	RT-K103N Y181C	cytopathic effect	0.6
CC(C)=CCN1Cc2cc(Cl)cc3[nH]c(=O)n(c23)C[C@@H]1C	Recombinant	MT-4	RT-P225H	cytopathic effect	2.4
CCc1c(C)[nH]c(=O)c(N(C)C)c1C(=O)c1cccc(CCC#N)c1	-	MT-4	RT-K103N	cytopathic effect / MTT	4.3
Nc1nc(=O)n([C@@H]2CS[C@H](CO)O2)cc1F	RTMC (RT D67N K70R T215F K219Q)	HT4 + HT4 LacZ-1	RT-D67N K70R T215F K219Q	-	4
Cc1ccnc2c1NC(=O)c1cccnc1N2C1CC1	NL4-3	MT-4	RT A62V 69SS K70R E79K V118I M184V E203K L210W T215Y	cytopathic effect	0.167
O=[N+]([O-])c1ccccc1S(=O)(=O)c1ccccc1	IIIB(TIBO-R(I))	CEM + CEM-SS	RT-A98G V108I	cytopathic effect / XTT	>60
O=c1[nH]cnc2c1ncn2[C@H]1CC[C@@H](CO)O1	BCF03	PBMC	RT-A98G Y181C	-	1.41
CC(=O)Oc1ccc(/C=C/C(=O)O[C@H](C(=O)O)[C@H](OC(=O)/C=C/c2ccc(OC(C)=O)c(OC(C)=O)c2)C(=O)O)cc1OC(C)=O	NL4-3	MT-4	AMD2763-resistant	cytopathic effect / MTT	>12
Cc1cc(C)cc(Sc2c(C(C)C)c(=O)[nH]c(=S)n2COCCO)c1	IIIB	CEM	RT-E138K	syncytia	13.3

4 of the rows above, restated:

structure	strain or isolate	cells	mutations	read by	result
CC(C)Nc1cccnc1N1CCN(C(=O)c2cc3cc(NS(C)(=O)=O)ccc3[nH]2)CC1	NRTI resistant (RT L74V M41L V106A T215Y) MDR	PBMC	RT-L74V M41L V106A T215Y	p24	44.4
Cc1cc(C)cc(Sc2c(C(C)C)c(=O)[nH]c(=S)n2COCCO)c1	IIIB	CEM	RT-E138K	syncytia	13.3
Cc1c(N)nc([C@H](CC(N)=O)NC[C@H](N)C(N)=O)nc1C(=O)N[C@H](C(=O)N[C@H](C)[C@@H](O)[C@H](C)C(=O)N[C@H](C(=O)NCCc1nc(-c2nc(C(=O)NCCC[S+](C)C)cs2)cs1)[C@@H](C)O)C(O[C@@H]1O[C@@H](CO)[C@@H](O)[C@H](O)[C@@H]1O[C@H]1O[C@H](CO)[C@@H](O)[C@H](OC(N)=O)[C@@H]1O)c1cnc[nH]1	Recombinant 3TC/AZT-resistant	PBMC	RT-M41L M184V T215Y	p24	0.57
O=c1[nH]cnc2c1ncn2[C@H]1CC[C@@H](CO)O1	IIIB	CEM	RT-E138K	syncytia	3.26